Entries after “also recorded” stand apart in the source; their conditions may differ. No end group written: not given here.

This data set relates to Sprague Dowley rats. The data set is described as follows: Auditory fear conditioning with microinfusion into the basolateral amygdala. The data set is classed as in vivo, rat. The settings on record: 1 mM into BLA 10 min before training. As to the method:
A. Animals: All procedures involving animals were in accordance to NIH guidelines and with approval of the bioethical committee of the Universidad Andrés Bello. Sprague Dowley rats (˜60 d old, ˜250 g) were caged individually at 22° C., 12/12 h light/dark cycle. The rats remained in their home box throughout the study, and were removed only briefly for drug microinfusion. B. Drugs: TAT-Cx43L2 ([…] (SEQ ID NO: 1), LifeTein, South Plainfield, N.J., USA, >90% purity) was dissolved in PBS to yield final solutions of 1 mM, 100 μM, 10 μM, 1 μM or 100 nM. Unless stated otherwise, the concentration used for microinfusions of TAT-Cx43L2 was 1 mM. As a control, TAT-Cx43L2^H126K/I130N was used at 1 mM. Gap27 (AnaSpec, Fremont, Calif., USA, >95% purity) and Gap27 scramble were dissolved to a final concentration of 1 mM. For the recovery cocktail, 100 mM glutamate (Sigma), D-serine (200 nM), glutamine (100 mM), ATP (100 μM), lactate (10 mM) and glycine (100 nM) were diluted in sterile saline. C. Apparatus: All behavioral essays were performed in a sound attenuating cubicle. Conditioning and tone testing were conducted in different chambers. For conditioning, rats were placed in a Plexiglas chamber with a metal grid floor (40 cm×40 cm×40 cm). The chamber was dimly illuminated by a red light. […]

With “YGRKKRRQRRRDGANVDMHLKQIEIKKFKYGIEEHGK [TAT-Cx43L2, synthetic cell-permeable peptide corresponding to the Cx43L2 region (aa 119-144) of the cytoplasmic loop of Cx43]”, the “locomotion (transitions) before training” value was “did not affect locomotion; also recorded: unaffected locomotion” and the “shock reactivity (escape velocity)” value was “did not affect shock reactivity; also recorded: normal reactivity to the shock”.

These data come from patent US9879058B2 (Universidad Andres Bello, priority 2012, dated 2018).
